From article PMC8548585, “Triazolopyrimidine herbicides are potent inhibitors of Aspergillus fumigatus acetohydroxyacid synthase and potential antifungal drug leads” (Scientific Reports, 2021)

Sequences of proteins named here, by UniProt entry; tags and fusion partners are left off. Residues count along the entry.
UniProt Q4WXQ3, 112-752 limits assumed: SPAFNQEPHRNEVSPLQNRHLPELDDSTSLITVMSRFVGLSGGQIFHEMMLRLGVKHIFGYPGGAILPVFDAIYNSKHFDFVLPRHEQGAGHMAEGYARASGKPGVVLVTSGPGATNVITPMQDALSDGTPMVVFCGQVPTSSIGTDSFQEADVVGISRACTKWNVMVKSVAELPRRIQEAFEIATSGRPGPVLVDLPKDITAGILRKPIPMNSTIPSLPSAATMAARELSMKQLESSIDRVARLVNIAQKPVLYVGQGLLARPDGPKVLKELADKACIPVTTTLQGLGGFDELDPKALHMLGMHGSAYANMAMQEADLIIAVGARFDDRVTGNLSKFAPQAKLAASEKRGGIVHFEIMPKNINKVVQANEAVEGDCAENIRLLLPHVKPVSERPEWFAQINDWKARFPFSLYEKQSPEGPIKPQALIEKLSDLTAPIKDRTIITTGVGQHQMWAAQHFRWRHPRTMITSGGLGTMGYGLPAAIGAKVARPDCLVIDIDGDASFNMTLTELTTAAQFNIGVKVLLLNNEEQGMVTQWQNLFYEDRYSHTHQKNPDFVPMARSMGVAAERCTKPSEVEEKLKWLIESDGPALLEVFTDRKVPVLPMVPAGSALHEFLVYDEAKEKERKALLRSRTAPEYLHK

Experiments:
A. fumigatus = assay: Antifungal susceptibility assay (broth microdilution MIC); assay type: cell-based, Aspergillus fumigatus; settings: A. fumigatus strain ATCC MYAA 3626, 35 °C, 48 h, no observable growth
A. nidulans = assay: as above; assay type: cell-based, Aspergillus nidulans; settings: 35 °C, 48 h, no observable growth
A. niger = assay: as above; assay type: cell-based, Aspergillus niger; settings: 35 °C, 48 h, no observable growth
A. flavus = assay: as above; assay type: cell-based, Aspergillus flavus; settings: 35 °C, 48 h, no observable growth
[1] = tested on: CaAHAS (C. albicans AHAS); settings: read-out: Ki for CaAHAS; shown for comparison; ref 13 (Garcia et al.); cited from earlier work
CaAHAS [2] = settings: cited from earlier work
AfuAHAS [3] = target: T1, AfuAHAS (Aspergillus fumigatus, UniProt Q4WXQ3); assay: Accumulative inhibition assay (continuous spectrophotometric method); settings: for kiapp, apparent first-order rate of inhibition: 2.6 µM AfuAHAS, 25 nM PS, FS, MT or 100 nM other herbicides, 30 °C, 45 min; for kiapp/k3, efficiency of accumulative inhibition: AfuAHAS
[4] = target: AfuAHAS (A. fumigatus AHAS catalytic subunit) (Aspergillus fumigatus, UniProt Q4WXQ3); assay: Ki determination by the colorimetric single point method in partial anoxic buffer; settings: read-out: Ki for AfuAHAS; partial anoxic assay buffer (N2 bubbling, 2-mercaptoethanol), 30 °C, 49.37 nM enzyme
CaAHAS [5] = settings: read-out: KM for pyruvate; cited from earlier work
AfuAHAS [6] = target: T1, AfuAHAS; assay: Stoichiometry of enzyme inhibition (continuous method); settings: 0.5 µM CE; extrapolation of the linear regression line

Row | Structure (SMILES) | MIC (A. fumigatus) | MIC (A. nidulans) | MIC (A. niger) | MIC (A. flavus) | Ki [1] | k3 for CaAHAS (CaAHAS [2]) | kiapp for CaAHAS (CaAHAS [2]) | kiapp/k3 for CaAHAS (CaAHAS [2]) | kiapp, apparent first-order rate of inhibition (AfuAHAS [3]) | kiapp/k3, efficiency of accumulative inhibition (AfuAHAS [3]) | Ki [4] | Km (CaAHAS [5]) | concentration of AfuAHAS fully inhibited (AfuAHAS [6])
1 | COc1cc(OC)n2nc(S(=O)(=O)Nc3c(Cl)ccc(C)c3Cl)nc2n1 | 25 µg/mL (≈ 59.8 µM) | 25 µg/mL (≈ 59.8 µM) | > 100 µg/mL | > 100 µg/mL | 0.8 nM | 0.023 min⁻¹ | 3.39 min⁻¹ | 147.4 | 4.2 min⁻¹ and 4.2 ± 0.6 min⁻¹ | 1750 | 1.4 nM |  | 
2 | COc1cc(OC)n2nc(NS(=O)(=O)c3c(C(F)(F)F)ccnc3OC)nc2n1 [PYS] |  |  |  |  |  |  |  |  | 6.9 ± 0.4 min⁻¹ | 138.8 | 37.8 nM |  | 
3 | COc1cnc(OC)n2nc(NS(=O)(=O)c3c(OCC(F)F)cccc3C(F)(F)F)nc12 | 25 µg/mL (≈ 51.7 µM) | 25 µg/mL (≈ 51.7 µM) | > 100 µg/mL | > 100 µg/mL | 2.4 nM | 0.074 min⁻¹ | 15.26 min⁻¹ | 206 | 18.5 min⁻¹ and 18.5 ± 2.6 min⁻¹ | 1426 | 1.8 nM |  | 
4 | CCOc1ccccc1OS(=O)(=O)NC(=O)Nc1nc(OC)cc(OC)n1 | > 100 µg/mL | > 100 µg/mL | > 100 µg/mL | > 100 µg/mL | 69.3 nM |  |  |  | 1.0 ± 0.3 min⁻¹ | 31.3 | 220 nM |  | 
5 | COC(=O)c1ccccc1S(=O)(=O)NC(=O)Nc1nc(C)cc(C)n1 | > 100 µg/mL | > 100 µg/mL | > 100 µg/mL | > 100 µg/mL |  |  |  |  | 0.2 ± 0.1 min⁻¹ | 26.2 | 3100 nM |  | 
6 | COc1cc(OC)nc(Oc2cccc(Oc3nc(OC)cc(OC)n3)c2C(=O)O)n1 | > 100 µg/mL | > 100 µg/mL | > 100 µg/mL | > 100 µg/mL | 2600 nM |  |  |  | NAI |  | 55000 nM |  | 
7 | COC(=O)c1csc(C)c1S(=O)(=O)NC(=O)n1nc(OC)n(C)c1=O [TCM] |  |  |  |  |  |  |  |  | 0.59 ± 0.03 min⁻¹ | 53.6 | 752 nM |  | 
8 | COC(=O)c1ccccc1CS(=O)(=O)NC(=O)Nc1nc(OC)cc(OC)n1 | > 100 µg/mL | > 100 µg/mL | > 100 µg/mL | > 100 µg/mL |  |  |  |  | 0.7 ± 0.1 min⁻¹ | 257.7 | 316 nM |  | 
9 | C=C(OC)c1ccccc1S(=O)(=O)NC(=O)n1nc(OCCC)n(C)c1=O | > 100 µg/mL | > 100 µg/mL | > 100 µg/mL | > 100 µg/mL | 484 nM |  |  |  | 0.34 ± 0.09 min⁻¹ | 11.3 | 937 nM |  | 
10 | COc1ncc(F)c2nc(S(=O)(=O)Nc3c(F)cccc3F)nn12 | > 100 µg/mL | > 100 µg/mL | > 100 µg/mL | > 100 µg/mL | 10.1 nM |  |  |  | 17.8 ± 0.6 min⁻¹ | 1268 | 14.4 nM |  | 
11 | COc1cc(OC)cc(Sc2cccc(Cl)c2C(=O)O)c1 |  |  |  |  |  |  |  |  | NAI |  | 31100 nM |  | 
12 | COc1nc(C)nc(NC(=O)NS(=O)(=O)c2ccccc2Cl)n1 | > 100 µg/mL | > 100 µg/mL | > 100 µg/mL | > 100 µg/mL | 570 nM |  |  |  | NAI |  | 1200 nM |  | 
13 | CC(C)C1(C)N=C(c2nc3ccccc3cc2C(=O)O)NC1=O (centres unmarked) | > 100 µg/mL | > 100 µg/mL | > 100 µg/mL | > 100 µg/mL | 716000 nM |  |  |  |  |  |  |  | 
14 | CC(=O)C(=O)O |  |  |  |  |  |  |  |  |  |  |  | 2600 µM | 
15 | CCOC(=O)c1ccccc1S(=O)(=O)NC(=O)Nc1nc(Cl)cc(OC)n1 | 100 µg/mL (≈ 241 µM) | > 100 µg/mL | > 100 µg/mL | > 100 µg/mL |  |  |  |  | 0.6 ± 0.1 min⁻¹ | 96.7 | 23.4 nM |  | 1.06 µM
16 | CCOc1nc(F)cc2nc(S(=O)(=O)Nc3c(Cl)cccc3Cl)nn12 | > 100 µg/mL | > 100 µg/mL | > 100 µg/mL | > 100 µg/mL | 1.7 nM |  |  |  | 3.2 ± 0.8 min⁻¹ | 530 | 8.7 nM |  | 
17 | Cc1cc2nc(S(=O)(=O)Nc3c(F)cccc3F)nn2cn1 |  |  |  |  |  |  |  |  | NAI |  | 373 nM |  | 
18 | CCc1cnc(C2=NC(C)(C(C)C)C(=O)N2)c(C(=O)O)c1 (centres unmarked) | > 100 µg/mL | > 100 µg/mL | > 100 µg/mL | > 100 µg/mL |  |  |  |  |  |  |  |  | 
19 | CCOc1nc(F)cc2nc(S(=O)(=O)Nc3c(Cl)cccc3C(=O)OC)nn12 [CSM] |  |  |  |  |  |  |  |  | 8.7 ± 1.8 min⁻¹ | 545 | 6.8 nM |  | 

Converted amounts (≈) assume the structure as drawn. “And” between values parts separate entries of the source, which are not always exact repeats. Equal entries are not always repeated.
